Data published in patent publication US10954262B2, “Tunicamycin analogues” (Oxford University Innovation Limited, priority 2017, dated 2021).
Counter-ions that a name gives are not always drawn.

How the values were obtained:
[1] = tested on: Bacillus cereus (ATCC11778); format: cell-based; conditions: B. cereus; minimal lethal dose / MIC; 800 μg/mL used when no cytotoxicity at 400 μg/mL
[2] = tested on: Mycobacterium tuberculosis H37RV; assay: MIC in GAST/Fe and 7H9/ADC/Tw growth medium at 1 and 2 weeks; format: cell-based; conditions: minimal lethal dose / MIC
[3] = M. tuberculosis (2 weeks in 7H9/ADC/Tw)
[4] = M. tuberculosis (2 weeks in GAST/Fe)

Row | Compound | RTI (Relative Therapeutic Index) [1] | RTI (Relative Therapeutic Index) [2, 3] | RTI (Relative Therapeutic Index) [2, 4]
1 | CC(C)=CCC[C@H](C)CC(=O)NC1C(OC2OC(C[C@@H](O)[C@H]3O[C@@H](n4ccc(=O)[nH]c4=O)[C@H](O)[C@@H]3O)C(O)C(O)[C@H]2NC(=O)C[C@@H](C)CCC=C(C)C)OC(CO)[C@@H](O)C1O (stereo partly drawn) [Compound E1, Di-N-citronoyl-tunicamycin] | 8 | 36 | 71
2 | CCCCCCC(=O)NC1C(OC2OC(C[C@@H](O)[C@H]3O[C@@H](n4ccc(=O)[nH]c4=O)[C@H](O)[C@@H]3O)C(O)C(O)[C@H]2NC(=O)CCCCCC)OC(CO)[C@@H](O)C1O (stereo partly drawn) [Compound E2, Di-N-heptanoyl tunicamycin] | 8 | 107 | 286
3 | CCCCCCCC(=O)NC1C(OC2OC(C[C@@H](O)[C@H]3O[C@@H](n4ccc(=O)[nH]c4=O)[C@H](O)[C@@H]3O)C(O)C(O)[C@H]2NC(=O)CCCCCCC)OC(CO)[C@@H](O)C1O (stereo partly drawn) [Compound E3, Di-N-octanoyl-tunicamycin] | 128 | 571 | 2286
4 | CCCCCCCCC(=O)NC1C(OC2OC(C[C@@H](O)[C@H]3O[C@@H](n4ccc(=O)[nH]c4=O)[C@H](O)[C@@H]3O)C(O)C(O)[C@H]2NC(=O)CCCCCCCC)OC(CO)[C@@H](O)C1O (stereo partly drawn) [Compound E4, Di-N-nonanoyl-tunicamycin] | 1026 | 2286 | 20000
5 | CCCCCCCCCC(=O)NC1C(OC2OC(C[C@@H](O)[C@H]3O[C@@H](n4ccc(=O)[nH]c4=O)[C@H](O)[C@@H]3O)C(O)C(O)[C@H]2NC(=O)CCCCCCCCC)OC(CO)[C@@H](O)C1O (stereo partly drawn) [Compound E5, Di-N-decanoyl-tunicamycin] | 2051 | 571 | 2286
6 | CCCCCCCCCCC(=O)NC1C(OC2OC(C[C@@H](O)[C@H]3O[C@@H](n4ccc(=O)[nH]c4=O)[C@H](O)[C@@H]3O)C(O)C(O)[C@H]2NC(=O)CCCCCCCCCC)OC(CO)[C@@H](O)C1O (stereo partly drawn) [Compound E6, Di-N-undecanoyl-tunicamycin] | 1026 | 143 | 286
7 | CCCCCCCCCCCC(=O)NC1C(OC2OC(C[C@@H](O)[C@H]3O[C@@H](n4ccc(=O)[nH]c4=O)[C@H](O)[C@@H]3O)C(O)C(O)[C@H]2NC(=O)CCCCCCCCCCC)OC(CO)[C@@H](O)C1O (stereo partly drawn) [Compound E7, Di-N-dodecanoyl-tunicamycin] | 16 | 27 | 71
8 | NC1C(O)[C@H](O)C(CO)O[C@@H]1OC1O[C@H](C[C@@H](O)[C@@H]2O[C@@H](n3ccc(=O)[nH]c3=O)[C@H](O)[C@@H]2O)C(O)C(O)[C@H]1N (stereo partly drawn) [D, α-D-glucosamine-(1″-11′)-tunicamyl Uracil Dihydrochloride] | 8 | 13 | 13
